Results of unrelated studies side by side (data: NIAID ChemDB).

Shared fields: target-level tests; organism: HIV-1; target: Protease; read-out: IC50

Lines come from different laboratories, so protocols vary. ICn is the concentration giving n% inhibition. Blank or dashed fields: not listed here.

structure	read by	result
O=C(Oc1ccccc1)N1C2C3(CO)C(c4ccccc4)C4(CO)C1C1(CO)C(c5ccccc5)C2(CO)C3N(C(=O)Oc2ccccc2)C41	-	>25 µM
C[C@H]1[C@H](C)CC[C@]2(C(=O)O)CC[C@]3(C)C(=CC[C@@H]4[C@@]5(C)CC[C@H](OC(=O)CCC(=O)O)C(C)(C)[C@@H]5CC[C@]43C)[C@H]12	-	6 µM
COc1ccc(C2C3(CO)C4N(C(=O)Cc5ccccc5)C5C2(CO)C2N(C(=O)Cc6ccccc6)C3C4(CO)C(c3ccc(OC)cc3)C52CO)cc1	-	>50 µM
C[N+](Cc1ccccc1)(C[C@H](O)[C@H](Cc1ccccc1)NC(=O)OC1CCOC1)/N=C(\[O-])c1ccccc1	HPLC	0.21 µM
C=C(C)[C@@H]1CC[C@]2(C(=O)O)CC[C@]3(C)[C@H](CC[C@@H]4[C@@]5(C)CC[C@H](OC(=O)C(=O)O)C(C)(C)C5CC[C@]43C)[C@@H]12	-	7 µM
C.NC(=O)C[C@H](NC(=O)CCCCCCCCCCCCCCC(=O)N[C@@H](CO)C(=O)N[C@@H](CC1CCCCC1)C(=O)N[C@@H](Cc1ccccc1)C(N)=O)C(=O)N[C@@H](Cc1cccc2ccccc12)C(=O)O	HPLC	0.53 µM
C=C(C)[C@@H]1CC[C@]2(C(=O)O)CC[C@]3(C)[C@H](CC[C@@H]4[C@@]5(C)CC[C@H](OC(=O)CC(=O)O)C(C)(C)C5CC[C@]43C)[C@@H]12	-	6 µM
C=C/C(C)=C/C1(CC(N)=O)SC(=O)C(CC)=C1O	HPLC	191 µM
CC(=O)Nc1ccc(S(=O)(=O)N(CC(C)C)C[C@@H](O)[C@H](CCc2ccccc2)NC(=O)Cc2c[nH]c3ccccc23)cc1	-	0.008 µM
CC(C)CCCCCCCCCCCC(=O)C1=C([O-])C(CO)OC1=O.[Na+]	HPLC	110 µM
CC(=O)O[C@H]1CC[C@]2(C)[C@H]3CC=C4[C@@H]5CC(C)(C)CC[C@]5(C(=O)O)CC[C@@]4(C)[C@]3(C)CC[C@H]2C1(C)C	-	9 µM
CC(C)(C)NC(=O)[C@@H]1C[C@]2(C)CCCC[C@]2(C)CN1C[C@@H](O)COc1ccc2[nH]ccc2c1	-	14 µM
CCCCCCCCCCCCCCCC(=O)C1=C([O-])C(CO)OC1=O.[Na+]	HPLC	84 µM
CC(C)C[C@H](NC(=O)[C@@H](N)CO)C(=O)N[C@@H](CC(N)=O)C(=O)N[C@@H](Cc1ccccc1)C(=O)Cc1ccccc1	substrate cleavage	>20 µM
N[C@@H](Cc1c[nH]c2ccccc12)C(=O)O	-	>100 µM
CC(C)CCCCCCCCCCCCC(=O)C1=C([O-])C(CO)OC1=O.[Na+]	HPLC	112 µM
N[C@@H](Cc1ccccc1)C(=O)Cc1ccccc1	substrate cleavage	550 µM
COC(=O)CCCC(=O)O[C@H]1CC[C@@]2(C)C(CC[C@]3(C)C2CC=C2C4CC(C)(C)CC[C@]4(C(=O)OC)CC[C@]23C)C1(C)C	-	>50 µM
CC(C)(C)OC(=O)N[C@@H](Cc1ccccc1)[C@@H](O)C[N+](C)(Cc1ccccc1)/N=C(\[O-])Cc1ccccc1	HPLC	1 µM
CC(=O)Nc1ccc(S(=O)(=O)N(CC(C)C)C[C@@H](O)[C@H](CCc2ccccc2)NC(=O)CN2C(=O)c3ccccc3C2=O)cc1	-	0.02 µM
COC(=O)[C@]12CCC(C)(C)C[C@H]1C1=CC[C@@H]3[C@@]4(C)CC[C@H](O)C(C)(C)[C@@H]4CC[C@@]3(C)[C@]1(C)CC2	-	20 µM
CC(C)(C)OC(=O)N[C@@H](Cc1ccccc1)[C@@H](O)C[N+](C)(Cc1ccccc1)/N=C(\[O-])C1CCCC1	HPLC	0.85 µM
C/C(O)=C/C1CC(=O)OC1Nc1ccc(Br)cc1Br	HPLC	221 µM
CN=S(=O)(C[C@@H](Cc1ccccc1)C(=O)N[C@H]1c2ccccc2C[C@H]1O)C[C@@H](Cc1ccccc1)C(=O)N[C@H]1c2ccccc2C[C@H]1O	-	0.46 µM
C[N+](Cc1ccccc1)(C[C@H](O)[C@H](Cc1ccccc1)NC(=O)OCC1CCOC1)/N=C(\[O-])c1ccccc1	HPLC	185 µM
CC(=O)N[C@H](CS(=O)(=O)Cc1ccc(Cl)cc1)C(=O)N[C@@H](CCc1ccccc1)[C@H](O)C(=O)N1CSC(C)(C)[C@H]1C(=O)NCc1ccccc1C	-	0.00022 µM
C[C@@H]1CC[C@]2(C(=O)O)CC[C@]3(C)C(=CCC4[C@@]5(C)CC[C@H](OC(=O)CC(=O)O)C(C)(C)C5CC[C@]43C)C2[C@H]1C	-	6 µM
CCC(C)CCCCCCCCCCCCC(=O)C1=C([O-])C(CO)OC1=O.[Na+]	HPLC	109 µM
COC(=O)N1C2C3(CO)C(c4ccc(OC)cc4)C4(CO)C1C1(CO)C(c5ccc(OC)cc5)C2(CO)C3N(C(=O)OC)C41	-	>50 µM
NC(=O)C[C@H](NC(=O)c1ccc2ccccc2n1)C(=O)N[C@@H](Cc1ccccc1)C(=O)Cc1ccccc1	substrate cleavage	100 µM
COc1ccc(CSC[C@@H](NC(C)=O)C(=O)N[C@@H](CCc2ccccc2)[C@H](O)C(=O)N2CSC(C)(C)[C@H]2C(=O)NCc2ccccc2C)cc1	-	0.00018 µM
CC(=O)N1C2C3(CO)C(c4ccccc4)C4(CO)C1C1(CO)C(c5ccccc5)C2(CO)C3N(C(C)=O)C41	-	>50 µM
C[N+](Cc1ccccc1)(C[C@H](O)[C@H](Cc1ccccc1)NC(=O)OC1CCOCC1)/N=C(\[O-])c1ccccc1	HPLC	3 µM
CSCC[C@H](NC(=O)CCCCCCCCCCCCCCC(=O)N[C@H](C(=O)N[C@@H](CC(C)C)C(=O)N[C@@H](Cc1cc(I)c(Oc2cc(I)c(O)c(I)c2)c(I)c1)C(N)=O)C(C)O)C(=O)N[C@@H](Cc1ccccc1)C(=O)O	HPLC	0.41 µM
Cc1c(O)cccc1C(=O)N[C@@H](c1ccc(-c2cccs2)cc1)[C@H](O)CN1C[C@H]2CCCC[C@H]2C[C@H]1C(=O)NC(C)(C)C	-	4 µM
CC(C)C[C@H](NC(=O)[C@@H](NC(=O)CCCCCCCCCCCCCCC(=O)N[C@@H](CC(N)=O)C(=O)N[C@@H](CC1CCCCC1)C(=O)O)C(C)O)C(=O)N[C@@H](Cc1ccc(-c2ccccc2)cc1)C(N)=O	HPLC	0.69 µM
C=C(C)[C@@H]1CC[C@]2(C(=O)O)CC[C@]3(C)[C@H](CC[C@@H]4[C@@]5(C)CC[C@H](OC(=O)CCC(=O)OC)C(C)(C)C5CC[C@]43C)[C@@H]12	-	40 µM
O=C(Cc1ccccc1)N1C2C3(CO)C(c4ccccc4)C4(CO)C1C1(CO)C(c5ccccc5)C2(CO)C3N(C(=O)Cc2ccccc2)C41	-	~50 µM
CC(C)(C)NOC[C@@H]1CN(Cc2cccnc2)CCN1CS(=O)C[C@@H](CCc1ccccc1)C(=O)N[C@H]1c2ccccc2C[C@H]1O	-	100 µM
CC(O)[C@H](NC(=O)CCCCCCCCCCCCCCC(=O)N[C@@H](CC(N)=O)C(=O)N[C@@H](Cc1cccc2ccccc12)C(=O)O)C(=O)N[C@H](C(=O)N[C@@H](Cc1ccccc1)C(N)=O)C1CCCCC1	HPLC	0.37 µM
CC(C)(C)NOC[C@@H]1CN(Cc2cccnc2)CCN1CS(=N)(=O)C[C@@H](CCc1ccccc1)C(=O)N[C@H]1c2ccccc2C[C@H]1O	-	100 µM
CC[C@H](C)[C@H](NC(=O)[C@@H](NC(=O)CCCCCCCCCCCCCCC(=O)N[C@@H](CC(N)=O)C(=O)N[C@@H](Cc1ccccc1)C(=O)O)C(C)O)C(=O)N[C@@H](Cc1ccccc1)C(N)=O	HPLC	2.5 µM
Cn1cc(C(=O)O)c(=O)c2cc(N)c(N3CCN(c4ccccn4)CC3)cc21	fluorescence	71 µM

6 of the rows above, restated:

structure | read by | result
C=C(C)[C@@H]1CC[C@]2(C(=O)O)CC[C@]3(C)[C@H](CC[C@@H]4[C@@]5(C)CC[C@H](OC(=O)C(=O)O)C(C)(C)C5CC[C@]43C)[C@@H]12 | - | 7 µM
CC(=O)Nc1ccc(S(=O)(=O)N(CC(C)C)C[C@@H](O)[C@H](CCc2ccccc2)NC(=O)Cc2c[nH]c3ccccc23)cc1 | - | 0.008 µM
C[N+](Cc1ccccc1)(C[C@H](O)[C@H](Cc1ccccc1)NC(=O)OC1CCOC1)/N=C(\[O-])c1ccccc1 | HPLC | 0.21 µM
COc1ccc(C2C3(CO)C4N(C(=O)Cc5ccccc5)C5C2(CO)C2N(C(=O)Cc6ccccc6)C3C4(CO)C(c3ccc(OC)cc3)C52CO)cc1 | - | >50 µM
C/C(O)=C/C1CC(=O)OC1Nc1ccc(Br)cc1Br | HPLC | 221 µM
CC(=O)N1C2C3(CO)C(c4ccccc4)C4(CO)C1C1(CO)C(c5ccccc5)C2(CO)C3N(C(C)=O)C41 | - | >50 µM